Results from ChEMBL document CHEMBL5620363, “HIV-1 protease inhibitors with a P1 phosphonate modification maintain potency against drug-resistant variants by increased interactions with flap residues” (Eur J Med Chem, 2023).

Test system: Human immunodeficiency virus 1
Assay: Antiviral activity against drug-resistant HIV-1 harboring protease L10F/L33F/M46I/I47V/I50V/F53L/L63P/A71V/L76S/V82I/I85V/L89I mutant infected in human TZM-bl cells using virus particles harvested from 24 hrs drug-treated human CEM cells infected with virus assessed as reduction in viral infection measured after 48 hrs in TZM-bl cells by Firefly luciferase based assay
Assay type: functional, organism-based
Conditions: Human immunodeficiency virus 1, TZM-bl

Compound	EC50 [µM]
CCOP(=O)(COc1ccc(C[C@H](NC(=O)O[C@H]2CO[C@H]3OCC[C@H]32)[C@H](O)CN(CC(CC)CC)S(=O)(=O)c2ccc3c(c2)OCO3)cc1)OCC	1.17
CCOP(=O)(COc1ccc(C[C@H](NC(=O)O[C@H]2CO[C@H]3OCC[C@H]32)[C@H](O)CN(CC(CC)CC)S(=O)(=O)c2ccc(OC)cc2)cc1)OCC	5.33
